From patent US20160115136A1, “COMPOUNDS, COMPOSITIONS COMPRSING SAME, AND METHODS RELATED THERETO” (UNIVERSITY OF IOWA RESEARCH FOUNDATION, priority 2013, published 2016)

Protein sequences, listed by entry. Tags and fused reporters are not part of them. Lines headed by an entry give the natural chain unless they say otherwise; changes in a name come on top.
UniProt P94556: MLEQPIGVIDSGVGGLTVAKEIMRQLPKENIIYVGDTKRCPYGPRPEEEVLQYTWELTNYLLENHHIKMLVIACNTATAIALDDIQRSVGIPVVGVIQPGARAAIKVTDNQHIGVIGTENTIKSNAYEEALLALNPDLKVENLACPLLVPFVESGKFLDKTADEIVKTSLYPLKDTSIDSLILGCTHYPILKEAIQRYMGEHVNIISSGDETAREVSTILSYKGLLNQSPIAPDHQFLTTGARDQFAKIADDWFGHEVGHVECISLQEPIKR

Biological target: glutamate racemase (GR) from B. subtilis (Bacillus subtilis, UniProt P94556)
Settings: from log(Ki) and calculated logP (MarvinSketch)

Substance: 7-fluoro-2-sulfo-1H-benzo[d]imidazole-5-carboxylic acid [Compound 4]
- LiPE (lipophilic efficiency): 6.0
